Reference: patent US11793880B2 (Seagen Inc., priority 2015, dated 2023)

Assay: general procedure: solution-phase peptide synthesis; HATU/DIPEA
Conditions: for conjugation yield: conjugation step

Substance | step yield (late stage modification step) [%] | step yield (coupling step) [%] | conjugation yield [%]
(2S,4R)-4-(2-((1R,3R)-1-(benzyloxy)-3-((2S,3S)—N,3-dimethyl-2-((R)-1-methylpiperidine-2-carboxamido)pentanamido)-4-methylpentyl)thiazole-4-carboxamido)-2-methyl-5-phenylpentanoic acid | 96 |  | 
(2S,4R)-allyl 4-(2-((1R,3R)-3-((2S,3S)—N,3-dimethyl-2-((R)-1-methylpiperidine-2-carboxamido)pentanamido)-4-methyl-1-((3-methylbutanoyl)oxy)pentyl)thiazole-4-carboxamido)-2-methyl-5-phenylpentanoate |  | 94 | 
Tub(OEt)-OAllyl |  | 71 | 
Boc-Val-Ala-PAB-TubM-OtBu |  |  | 58
Fmoc-Lys(PEG12)-GlucQ-Tub(OPr) |  |  | 73
(2S,4R)-allyl 4-(2-((1R,3R)-3-((2S,3S)—N,3-dimethyl-2-((R)-1-methylpiperidine-2-carboxamido)pentanamido)-4-methyl-1-(propionyloxy)pentyl)thiazole-4-carboxamido)-2-methyl-5-phenylpentanoate |  | 97 | 
Fmoc-Gluc(Allyl)Q-TubM-OAllyl |  | 46 | 
Fmoc-GlucQ-Tub(OPr)-OAllyl |  |  | 68
(2S,4R)-4-(2-((1R,3R)-3-((2S,3S)—N,3-dimethyl-2-((R)-1-methylpiperidine-2-carboxamido)pentanamido)-4-methyl-1-((2-methylallyl)oxy)pentyl)thiazole-4-carboxamido)-2-methyl-5-phenylpentanoic acid | 93 |  | 
H-Lys(PEG12)-GlucQ-Tub(OEt) | 86 |  | 
(2S,4R)-allyl 4-(2-((1R,3R)-1-(benzyloxy)-3-((2S,3S)—N,3-dimethyl-2-((R)-1-methylpiperidine-2-carboxamido)pentanamido)-4-methylpentyl)thiazole-4-carboxamido)-2-methyl-5-phenylpentanoate |  | 75 | 
(2S,4R)-allyl 4-(2-((1R,3R)-1-(butyryloxy)-3-((2S,3S)—N,3-dimethyl-2-((R)-1-methylpiperidine-2-carboxamido)pentanamido)-4-methylpentyl)thiazole-4-carboxamido)-2-methyl-5-phenylpentanoate |  | 98 | 
H-Lys(PEG12)-GlucQ-Tub | 82 |  | 
Boc-Val-Glu(OtBu)-PABQ-Tub-OAllyl |  |  | 85
(2S,4R)-allyl 4-(2-((1R,3R)-3-((2S,3S)—N,3-dimethyl-2-((R)-1-methylpiperidine-2-carboxamido)pentanamido)-4-methyl-1-(prop-2-yn-1-yloxy)pentyl)thiazole-4-carboxamido)-2-methyl-5-phenylpentanoate |  | 93 | 
mDPR(Boc)-Lys(PEG12)-GlucQ-Tub(OPr) |  |  | 74
(2R)-1-(3-((S)-44-((S)-3-amino-2-(2,5-dioxo-2,5-dihydro-1H-pyrrol-1-yl)propanamido)-38,45-dioxo-2,5,8,11,14,17,20,23,26,29,32,35-dodecaoxa-39,46-diazanonatetracontanamido)-4-(((2S,3R,4S,5S,6S)-6-carboxy-3,4,5-trihydroxytetrahydro-2H-pyran-2-yl)oxy)benzyl)-2-(((2S,3S)-1-(((1R,3R)-1-(4-(((2R,4S)-4-carboxy-1-phenylpentan-2-yl)carbamoyl)thiazol-2-yl)-4-methyl-1-((2-methylallyl)oxy)pentan-3-yl)(methyl)amino)-3-methyl-1-oxopentan-2-yl)carbamoyl)-1-methylpiperidin-1-ium | 94 |  | 
Tub(OPr)-OAllyl |  | 53 | 
Fmoc-Gluc(Allyl)Q-Tub(iso-O-Allyl) |  | 13 | 
(2S,4R)-4-(2-((1R,3R)-3-((2S,3S)—N,3-dimethyl-2-((R)-1-methylpiperidine-2-carboxamido)pentanamido)-4-methyl-1-(prop-2-yn-1-yloxy)pentyl)thiazole-4-carboxamido)-2-methyl-5-phenylpentanoic acid | 55 |  | 
(2S,4R)-allyl 4-(2-((1R,3R)-3-((2S,3S)—N,3-dimethyl-2-((R)-1-methylpiperidine-2-carboxamido)pentanamido)-1-(isobutyryloxy)-4-methylpentyl)thiazole-4-carboxamido)-2-methyl-5-phenylpentanoate |  | 94 | 

Substance | step yield (late stage modification step) [%] | step yield (coupling step) [%] | conjugation yield [%]
mDPR(Boc)-Lys(PEG12)-GlucQ-Tub |  |  | 61
(2S,4R)-allyl 4-(2-((1R,3R)-3-((2S,3S)—N,3-dimethyl-2-((R)-1-methylpiperidine-2-carboxamido)pentanamido)-1-((3,3-dimethylbutanoyl)oxy)-4-methylpentyl)thiazole-4-carboxamido)-2-methyl-5-phenylpentanoate |  | 94 | 
(2R)-2-(((2S,3S)-1-(((1R,3R)-1-acetoxy-1-(4-(((2R,4S)-4-carboxy-1-phenylpentan-2-yl)carbamoyl)thiazol-2-yl)-4-methylpentan-3-yl)(methyl)amino)-3-methyl-1-oxopentan-2-yl)carbamoyl)-1-(3-(3-((S)-3-amino-2-(2,5-dioxo-2,5-dihydro-1H-pyrrol-1-yl)propanamido)propanamido)-4-(((2S,3R,4S,5S,6S)-6-carboxy-3,4,5-trihydroxytetrahydro-2H-pyran-2-yl)oxy)benzyl)-1-methylpiperidin-1-ium | 81 |  | 
(2S,4R)-tert-butyl 4-(2-((1R,3R)-1-acetoxy-3-((2S,3S)—N,3-dimethyl-2-((R)-1-methylpiperidine-2-carboxamido)pentanamido)-4-methylpentyl)thiazole-4-carboxamido)-2-methyl-5-phenylpentanoate | 32 |  | 
Tub(OMe)-OAllyl |  | 71 | 
Fmoc-Lys(PEG12)-GlucQ-Tub |  |  | 70
(2S,4R)-4-(2-((1R,3R)-1-(allyloxy)-3-((2S,3S)—N,3-dimethyl-2-((R)-1-methylpiperidine-2-carboxamido)pentanamido)-4-methylpentyl)thiazole-4-carboxamido)-2-methyl-5-phenylpentanoic acid | 92 |  | 
Fmoc-GlucQ-Tub(O-methylpropene)-OAllyl |  | 49 | 
(2R)-2-(((2S,3S)-1-(((1R,3R)-1-acetoxy-1-(4-(((2R,4S)-4-carboxy-1-phenylpentan-2-yl)carbamoyl)thiazol-2-yl)-4-methylpentan-3-yl)(methyl)amino)-3-methyl-1-oxopentan-2-yl)carbamoyl)-1-(3-((S)-44-((S)-3-amino-2-(2,5-dioxo-2,5-dihydro-1H-pyrrol-1-yl)propanamido)-38,45-dioxo-2,5,8,11,14,17,20,23,26,29,32,35-dodecaoxa-39,46-diazanonatetracontanamido)-4-(((2S,3R,4S,5S,6S)-6-carboxy-3,4,5-trihydroxytetrahydro-2H-pyran-2-yl)oxy)benzyl)-1-methylpiperidin-1-ium | 97 |  | 
Fmoc-Lys(PEG12)-GlucQ-Tub(O-methylpropene) |  |  | 56
Fmoc-Lys(PEG12)-GlucQ-Tub(OEt) |  |  | 67
mDPR(Boc)-Lys(PEG12)-GlucQ-Tub(O-methylpropene) |  |  | 63
mDPR(Boc)-Lys(PEG12)-GlucQ-Tub(O-iso-allyl) |  |  | 61
mDPR(Boc)-Lys(PEG12)-ValGluPABQ-Tub |  |  | 46
Fmoc-Lys(PEG12)-ValGluPABQ-Tub |  |  | 75
H-Lys(PEG12)-GlucQ-Tub-(O-iso-allyl) | 82 |  | 
H-Lys(PEG12)-ValGluPABQ-Tub | 86 |  | 
Val-Ala-PAB-TubM | 63 |  | 
Fmoc-Lys(PEG12)-GlucQ-Tub-(O-iso-allyl) |  |  | 13
H-Lys(PEG12)-GlucQ-Tub(OPr) | 71 |  | 
(2S,4R)-allyl 4-(2-((1R,3R)-3-((2S,3S)—N,3-dimethyl-2-((R)-1-methylpiperidine-2-carboxamido)pentanamido)-4-methyl-1-((2-methylallyl)oxy)pentyl)thiazole-4-carboxamido)-2-methyl-5-phenylpentanoate |  | 62 | 
